Measured values from several laboratories, pooled; numbers as filed in NIAID ChemDB.

All rows: tests on isolated targets; species: HIV-1; protein: Reverse transcriptase; measure: IC50

An empty or dashed field is not shown.

compound	strain or isolate	changes	read by	result
C[C@H](NC(=S)Nc1ccc(Br)cn1)c1cccc2ccccc12				>100 µM
C[C@H](Cn1cnc2c(N)ncnc21)OCP(=O)(O)OP(=O)(O)OP(=O)(O)O			nucleotide incorporation / radiometric	0.38 µM
Cc1cc(C)nc(N2C(=O)CSC2c2c(Cl)cccc2Cl)n1			nucleotide incorporation / radiometric	0.87 µM
Cc1cn([C@H]2CC[C@@H](OCP(=O)(O)OP(=O)(O)OP(=O)(O)O)O2)c(=O)[nH]c1=O			nucleotide incorporation / radiometric	5.4 µM
Cc1cccc2sc(NC(=S)N[C@@H](C)c3cccc4ccccc34)nc12				>100 µM
N#Cc1c(N)cccc1S(=O)(=O)c1cccc(Br)c1				12 µM
N#Cc1cc(Cl)cc(Oc2c(Br)ccc(Cn3c(=O)[nH]c4nnccc43)c2F)c1	K103N/Y181C	NNRTI-resistant (RT K103N/Y181C)	scintillation proximity / radiometric	0.004 µM
COc1cc(C)nc(N2C(=O)CSC2c2c(F)cccc2Cl)n1			nucleotide incorporation / radiometric	0.85 µM
Cc1cccc(NC(=S)N[C@H](C)c2ccccc2)n1				1.7 µM
N#Cc1c(N)cccc1S(=O)(=O)c1ccccc1F				>14 µM
Cc1ccnc(N2C(=O)CSC2c2c(Cl)cccc2Cl)n1			nucleotide incorporation / radiometric	0.92 µM
CCc1c(Sc2ccccn2)n(COCc2ccccc2)c(=O)[nH]c1=O		RT-Y188H		8 µM
O=S(=O)(c1ccccc1)n1c(-c2c(F)cccc2F)nc2ccccc21				~10 µM
C[C@@H](CNC(=S)Nc1ccc(Cl)cn1)C1CCCCC1				1.4 µM
O=C(c1c(F)cccc1F)n1c(-c2c(F)cccc2F)nc2ccccc21				<10 µM
CCC(NC(=S)Nc1nc2ccc(OC)cc2s1)c1ccccc1				>100 µM
N#Cc1c(N)cccc1S(=O)(=O)c1ccc(Cl)cc1				0.4 µM
N#Cc1cc(Cl)cc(Oc2c(Br)ccc(Cn3c(=O)[nH]c4ccccc43)c2F)c1		Wild type	scintillation proximity / radiometric	0.013 µM
CCC(NC(=S)Nc1cc(C)cc(C)n1)c1ccccc1				>100 µM
COc1ccc2c(c1)N(C(=O)OC(C)C)[C@@H](CSC)C(=S)N2		RT-M184V G190E	scintillation proximity / radiometric	>29 µM
C[C@@H]1O[C@@H](Oc2c(-c3cc(O)c(O)c(O)c3)oc3cc(O)cc(O)c3c2=O)[C@H](O)[C@H](O)[C@H]1O				>500 µM
Cc1cn([C@H]2C=C[C@@H](COP(=O)(O)OP(=O)(O)OP(=O)(O)O)O2)c(=O)[nH]c1=O			nucleotide incorporation / radiometric	0.06 µM
Cc1ccc(NC(=S)NC[C@@H](C)c2ccccc2)nc1				7.7 µM
Fc1cccc(F)c1Cn1c(-c2c(F)cccc2F)nc2c(Br)cccc21				<10 µM
Cn1cc(Cc2ccc(Br)c(Oc3cc(Cl)cc(C#N)c3)c2F)c(=O)[nH]c1=O		Wild type	scintillation proximity / radiometric	0.006 µM
CCN1c2ncccc2C(=O)N(C)c2ccc(-c3cc[nH]c3)nc21		RT-Y181C	nucleotide incorporation	0.05 µM
Cc1cccc2c1nc(-c1cccnc1)n2Cc1c(F)cccc1F				>10 µM
Cc1cc(C)nc(N2C(=O)CSC2c2c(F)cccc2Cl)n1			nucleotide incorporation / radiometric	2.5 µM
N#Cc1cc(Cl)cc(Oc2c(Br)ccc(CN3CC(=O)NC3=O)c2F)c1	K103N/Y181C	NNRTI-resistant (RT K103N/Y181C)	scintillation proximity / radiometric	0.011 µM
C/C=C\C=C\C/C=C\CCCCCCCc1cccc(O)c1O			nucleotide incorporation / radiometric	56.84 µM
Cc1ccccc1S(=O)(=O)c1cccc(N)c1C#N				13 µM
C=CC/C=C\C/C=C\CCCCCCCc1cccc(O)c1O			nucleotide incorporation / radiometric	55.36 µM
Nc1ccnc2c1ccn2[C@H]1CC[C@@H](COP(=O)(O)OP(=O)(O)OP(=O)(O)O)O1			RT activity	>1000 µM
CCC(NC(=S)Nc1ccc(C)cn1)c1ccccc1				0.8 µM
Cc1ccccc1-c1nc2ccccc2n1Cc1c(F)cccc1F				<10 µM
N#Cc1cc(Cl)cc(Oc2c(Br)ccc(Cn3c(=O)[nH]c4ncccc43)c2F)c1		Wild type	scintillation proximity / radiometric	0.006 µM
N#Cc1ccc(S(=O)(=O)c2cccc(N)c2C#N)cc1				1.8 µM
N#Cc1cc(Cl)cc(Oc2c(Br)ccc(Cc3ccc[nH]c3=O)c2F)c1		Wild type	scintillation proximity / radiometric	0.019 µM
Nc1ncnc2c1ncn2[C@H]1CC[C@@H](COP(=O)(O)OP(=O)(O)OP(=O)(O)O)O1			RT activity	0.45 µM
N#Cc1c(N)cccc1S(=O)(=O)c1cccc(F)c1				5 µM

Repeating the first 3 entries:

C[C@H](NC(=S)Nc1ccc(Br)cn1)c1cccc2ccccc12 ; result: >100 µM
C[C@H](Cn1cnc2c(N)ncnc21)OCP(=O)(O)OP(=O)(O)OP(=O)(O)O ; read by: nucleotide incorporation / radiometric ; result: 0.38 µM
Cc1cc(C)nc(N2C(=O)CSC2c2c(Cl)cccc2Cl)n1 ; read by: nucleotide incorporation / radiometric ; result: 0.87 µM

Rows are shuffled and stem from different studies. ICn: concentration for n% inhibition.